Primary screen of a compound library

Measurements from “University of Dundee, Small-Polar-MMV Screening Library” (2021), ChEMBL document CHEMBL3988442.

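Growth of Mycobacterium tuberculosis over 3 days (7H9 medium with glucose and tyloxapol); the read-out is not stated. Concentration: 500 µM. Higher reads as more growth inhibition (inferred: compounds with an IC50 in retests scored well above the rest). About 18,000 compounds were tested under these conditions; 7.9% (about 1,400) showed 50% or more at least once.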

Each number is a percent effect as filed. How 0% and 100% were set is not recorded. Most values in the screen are low, and negative values occur. Many other results are left out here, so strong results are more common than in the screen.

structure | Percent Effect
COc1ccnc(CN(C)CC2CCOCC2)c1OC | -3.815
CN(C)CCO[C@H]1CCOC[C@H]1NC(=O)c1cc[nH]c1 | 9.781
CCNC(=O)c1cccc(CN)c1 | 0.5806
Cc1ccc(C(=O)NCc2ccnc(N(C)C)c2)s1 | 56.49
CCCS(=O)(=O)NCC(O)CN1CCCC1 (configuration not stated) | -0.8749
c1cncc(-c2nc(SCC3CCCCO3)n[nH]2)c1 (configuration not stated) | 64.2
NC(=O)C(OC(=O)CCc1ccc(F)cc1)C1CC1 (configuration not stated) | 43.48
c1cc(NCC2CCCO2)ccn1 (configuration not stated) | 9.804
CSc1ncccc1C(=O)NC(C)c1nc(C)c[nH]1 (configuration not stated) | 4.882
COCCCNC(=O)CC1Nc2ccccc2NC1=O (configuration not stated) | 23.1
CN(C)C(=O)CN1CCCC1c1ccsc1 (configuration not stated) | 9.319
COc1cccc(C2=NN=C(NC3CC3)SC2)c1 | 79.76
COCc1nc(CN(C)CC2COCCO2)no1 (configuration not stated) | 8.818
CC(Cn1ccnc1)NC(=O)Cn1cc(Br)ccc1=O (configuration not stated) | -7.602
CC(=O)Nc1ccccc1CN(C)CC(C)O (configuration not stated) | 8.398
CCN(CCCS(=O)(=O)NC)c1cccc(CO)c1 | 4.44
COC(=O)CN(CCn1cncn1)C1CCCC1 | -5.218
N#Cc1ccc(CN2CCCN(CCCO)CC2)cc1 | 43.91
Cc1ccc(C(=O)NCc2ccccc2CO)c(=O)[nH]1 | -6.283
C[C@@H](NC(=O)Nc1nccn(C)c1=O)c1ccccc1 | 23.97
NC(=O)c1cc(N)cs1 | -34.45
CC(O)CNC(=O)c1ccc(-c2ccccc2F)o1 (configuration not stated) | 47.33
NC(=O)C1CCN(C(=O)COC(=O)c2cccs2)CC1 | -1.461
NCc1ccc(N2CCOCC2)c(F)c1 | 14.61
CNCc1nc(C)no1 | 3.969
CN(Cc1ccoc1)C(=O)CN(C)C1CCNCC1 | -2.748
CCN1CCN(CC(C)CNc2ccccn2)CC1 (configuration not stated) | -5.252
COCCNC(=O)[C@@H](N)Cc1ccccc1 | 0.9472
COc1ncc(C)cc1N | -125.9
Cn1c(CO)cnc1S(=O)(=O)Cc1ccc(F)cc1 | -0.8459
COc1cc(CNC(=O)NCC(F)(F)F)ccn1 | 26.08
CC1Oc2ccc(Cl)cc2NC1=O (configuration not stated) | 4.478
COc1ccccc1CCNC(=O)NC[C@H](C)O | 15.95
COCCN1CCCN(C(=O)c2csc(Br)c2)CC1 | 26.01
O=C(Cc1ccccc1O)NCCOCC1CCOC1 (configuration not stated) | 9.896
O=C(CSc1ccccc1)NCCCN1CCOCC1 | -5.859
COc1cc(C)c(S(=O)(=O)N2C[C@@H](O)[C@@H](O)C2)cc1C | 53.36
COc1ncccc1C(=O)NCC(=O)N1CCCC1 | 8.178
CS(=O)(=O)N1CCC(Nc2ncc(Br)cn2)CC1 | -3.951
Cc1cc(C(=O)Nc2ccc3c(c2)CCN3)n(C)n1 | 38.65
Cn1cnnc1CNC(=O)c1sccc1OC(F)F | 3.002
Cc1c[nH]c(C(C)NC(=O)c2ccccc2C#N)n1 (configuration not stated) | 5.812
CC(N)CC1CCOCC1 (configuration not stated) | -1.329
CSCCC(NC(N)=O)C(=O)NCCc1ccccc1 (configuration not stated) | 5.047
CCNS(=O)(=O)C1CCN(Cc2cc(C#N)cs2)C1 (configuration not stated) | 37.04
c1cc2nnnn2nc1NC1CCN(C2CC2)CC1 | -3.509
Cc1ccc(S(=O)(=O)NCC(C)N)cc1F (configuration not stated) | 5.588
OC1CCN(Cc2ccc3c(c2)CCC3)C1 (configuration not stated) | 60.61
NS(=O)(=O)CCNC(=O)c1ccc(-c2cccs2)s1 | -1.578
O=S(=O)(C1CC1)N1CCC(Nc2ccccn2)CC1 | 7.708
CCOc1cc(C(=O)NC2=NCCS2)ccc1OC | 8.904
O=C(c1ccccc1)N1CCC(NC2CCOCC2)C1 (configuration not stated) | -7.969
Cc1cnc(NC(=O)CCn2cncn2)s1 | -4.682
CNc1nc(NCCS(C)(=O)=O)ncc1Br | 50.28
COc1cccc(Cl)c1Cn1cc(Cl)c(=O)[nH]c1=O | -11.2
Nc1nnc(SCC2COc3ccccc3O2)s1 (configuration not stated) | -8.794
NCCNS(=O)(=O)c1ccccc1 | 6.508
CN1CCC(N(C)C(=O)Cc2ccc(F)cc2)CC1 | -9.591
COc1ccc(CN(C)C(=O)C2CC2)cc1F | 66.26
C=C(C)CCOC(=O)c1cc(C(N)=O)cs1 | 64.29
CNC(=O)c1ccc(Cl)c(S(=O)(=O)N2CCCCC2)c1 | 53.51
N#Cc1ncc(N)cc1Cl | 29.49
CC(C)=CCC1(CO)CCCN(CCS(C)(=O)=O)C1 (configuration not stated) | 15.91
CC(C(=O)NC1CCCC1)N1CCNCC1 (configuration not stated) | -0.8422
O=C(Nc1cccc(CO)n1)Nc1ccccc1Cl | 61.65
CCNC(=O)C(C)NC(=O)c1ccc(OC)c(OC)c1 (configuration not stated) | 3.384
CCC(=O)NC1CCCc2occc21 (configuration not stated) | 12.08
COc1ccccc1S(=O)(=O)N1C[C@H](C(C)C)[C@@H](N)C1 | 10.49
O=C(Nc1cccc(Cl)c1)C1CCCN1 (configuration not stated) | 42.03
CCCS(=O)(=O)Nc1cccc(OCC)n1 | 2.924
COc1ccc(CNC(=O)c2cnccn2)cc1OC | 46.13
COc1ccc(NC(=O)COc2ccccc2F)cn1 | 70.83
COc1ccc(C(=O)NCCN(C)C)cc1F | 8.396
Cc1noc(C)c1CN1CCCC(CNS(C)(=O)=O)C1 (configuration not stated) | 13.89
NC(=O)CN(C(=O)c1cccc(Cl)c1)c1ccccc1 | 26.18
O=C(NCC1(CO)CC1)OCc1ccccc1 | 60.99
CCn1cnnc1CCNC(=O)c1cnn(C(C)C)c1 | 5.935
CCNS(=O)(=O)c1ccc(CC(N)=O)cc1 | 7.007
CNCc1ccoc1 | 9.923
CC1CCCCN1C(=O)CN(C)CCO (configuration not stated) | -5.302
Cc1cccc2[nH]c(C(C)O)nc12 (configuration not stated) | 26.01
O=C1CCC(C(=O)NCCc2ccc(F)cc2)N1 (configuration not stated) | 18.25
Cc1ccc(S(=O)(=O)N2CCOc3ccncc32)cc1 | 56.84
COc1ccc2c(c1)C(C)(O)C(=O)N2 (configuration not stated) | -2.427
CC(=O)c1cc(CN2CCCC2c2nc(C)n[nH]2)cs1 (configuration not stated) | 2.568
CCN1CCN(C2CCNCC2)CC1 | -9.51
CS(=O)(=O)CC1(CN2CCNC(=O)CC2)CCC1 | -5.97
Cn1nccc1C1(O)CCOCC1 | 3.598
CNC(=O)[C@@H](C)Nc1ccc(C(F)(F)F)cn1 | 64.81
O=S1(=O)CCCC1CNC1CCSCC1 (configuration not stated) | -1.823
c1cnn(CC2CCNCC2)c1 | -4.667

The last 5 entries again:

| structure | Percent Effect |
|---|---|
| `CS(=O)(=O)CC1(CN2CCNC(=O)CC2)CCC1` | -5.97 |
| `Cn1nccc1C1(O)CCOCC1` | 3.598 |
| `CNC(=O)[C@@H](C)Nc1ccc(C(F)(F)F)cn1` | 64.81 |
| `O=S1(=O)CCCC1CNC1CCSCC1` (configuration not stated) | -1.823 |
| `c1cnn(CC2CCNCC2)c1` | -4.667 |